Anti-infective test results gathered from many reports (values: NIAID ChemDB through PubChem).

Shared fields: toxicity to cultured cells; cell line: HFF; method: visual reading; measure: CC50

Two numbers with a dash give a range or band. CCn: concentration that lowers growth or viability of the cells by n%. Lines come from different laboratories, so protocols vary.

compound,result
Cn1c(=O)ccn(/C=C2/CC2(CO)CO)c1=O,>100 µM
Nc1ncnc2c1ncn2/C=C1/CC1(CO)CO,100–200 µM
Nc1[nH]nc2c1c1cc(Cl)c(Cl)cc1n2[C@@H]1O[C@H](CO)[C@@H](O)[C@H]1O,5 µM
CN1N=C(N)c2cn([C@@H]3O[C@H](CO)[C@@H](O)[C@H]3O)c3nc(-c4ccccc4)nc1c23,21 µM
OCCOCn1cnc2c(Cl)c(Cl)ccc21,>100 µM
O=c1[nH]c(=O)n([C@@H]2O[C@H](CO)[C@@H](O)[C@@H]2F)cc1I,0.13 µM
Cc1cccc(Cn2c(N)c(C#N)c3c(N)ncnc32)c1,100 µM
COc1nc2cc(Cl)c(Cl)cc2n1[C@H]1C[C@H](O)[C@@H](CO)O1,>100 µM
Clc1cc2nc(Cl)c(CSCc3ccccc3)n2cc1Cl,100 µM
Cc1nsc2nc[nH]c12,32 µM
OC[C@H]1O[C@@H](n2c(Br)nc3cc(Cl)c(Cl)cc32)C[C@@H]1O,50 µM
C[C@H]1O[C@H](n2c(Cl)nc3cc(Cl)c(Cl)cc32)[C@@H](O)[C@H]1O,60 µM
CCc1cn([C@@H]2O[C@H](CO)[C@@H](O)[C@@H]2F)c(=O)[nH]c1=O,14 µM
C[C@H]1O[C@H](n2c(Br)nc3cc(Cl)c(Cl)cc32)[C@@H](O)[C@H]1O,50 µM
CSc1nc2cc(Cl)c(Cl)cc2n1[C@H]1C[C@H](O)[C@@H](CO)O1,>100 µM
C[C@@H]1O[C@@H](n2c(Cl)nc3cc(Cl)c(Cl)cc32)[C@H](O)[C@@H]1O,20 µM
CNc1nc2c(Cl)c(Cl)ccc2n1COCCO,>100 µM
OCCOCc1c(Cl)nc2cc(Cl)c(Cl)cn12,100 µM
CNc1nc2cc(Cl)c(Cl)cc2n1[C@@H]1O[C@@H](CO)[C@H](O)[C@H]1O,>100 µM
Cc1nsc2ncn([C@@H]3O[C@H](CO)[C@@H](O)[C@H]3O)c12,32 µM
CN1N=C(N)c2cn([C@@H]3O[C@H](CO)[C@@H](O)[C@H]3O)c3nc(Cl)nc1c23,>100 µM
OCCOCn1cnc2cc(Cl)c(Cl)cc21,>100 µM
c1ccc(CSc2nc3sncc3[nH]2)cc1,14 µM
CNc1nc2cc(Cl)c(Cl)cc2n1COCCO,>100 µM
CCSCc1c(Cl)nc2ccc(Cl)cn12,100 µM
Nc1nc2c(ncn2COCCO)c(=O)[nH]1,14 µM
CN1N=C(N)c2cn([C@@H]3O[C@H](CO)[C@@H](O)[C@H]3O)c3nc(N)nc1c23,>100 µM
OCC1OC(n2c(Cl)cc3cc(Cl)c(Cl)cc32)C(O)C1O,>100 µM
OCCOCn1cnc2c(Cl)cc(Cl)cc21,>100 µM
OCC(O)COCc1c(Cl)nc2cc(Cl)c(Cl)cn12,>100 µM
OCCOCn1c(Cl)nc2cc(Cl)c(Cl)cc21,>320 µM
CSc1nc2sncc2n1[C@@H]1O[C@H](CO)[C@@H](O)[C@@H]1O,21 µM
OC[C@@H]1O[C@@H](n2c(Cl)nc3cc(Cl)c(Cl)cc32)[C@H](O)[C@H]1O,>100 µM

A second listing of 3 rows from above:

| compound | result |
|---|---|
| CNc1nc2cc(Cl)c(Cl)cc2n1[C@@H]1O[C@@H](CO)[C@H](O)[C@H]1O | >100 µM |
| OCCOCc1c(Cl)nc2cc(Cl)c(Cl)cn12 | 100 µM |
| Clc1cc2nc(Cl)c(CSCc3ccccc3)n2cc1Cl | 100 µM |